Experimental findings from patent publication US20240026278A1, “BLOOD CELL LYSING AGENT FOR ISOLATING BACTERIA FROM BLOOD CULTURE” (Becton, Dickinson and Company, priority 2020, published 2024) are described below.

For the series, the system named is Staphylococcus epidermidis. Description: MALDI scores for Staphylococcus epidermidis isolated from positive blood cultures using different lysing agents. The following applies: S. epidermidis isolated from positive blood cultures, lysing agent at 0.52% (w/w).

“Also recorded” adds a separate entry of the source.

On to Nonoxynol-9 [SDA], for which the MALDI identification entry is recorded as “correct identification”. Where the note is “acceptance score >= 1.8 Sepsityper database, 2.0 standard database”, the MALDI score result is “high MALDI scores; also recorded: higher MALDI score”.
